Source: the supplement of paper PMC12637763
Positions count from the first letter of the chain named. The list shows a part of the results. Env chains of viruses from a treatment-interruption trial, translated from the printed DNA. IC50 / IC80 of two broadly neutralizing antibodies; lower = more sensitive virus; >50 µg/ml means not reached and <0.001 µg/ml is below the lowest dose. No active / inactive call.

B1: HIV-1 Env, reservoir clone (protein)
chain: MRVKGIMRNYQHLWRWGIMLLGMLMICNATEKLWVTVYYGVPVWKEATTTLFCASDAKAYDTEAHNVWATHACVPTDPDPQEVVLENVTEDFNAWKNDMVEQMHEDIISLWDQSLKPCVKLTPLCVTLECTDNVNCTGTNCTGVKDTNDTNNANLIMEKGEMKNCSFNITTNIRDKVDRQYALFYKLDIVQIEDNNTNTYRLISCNTSVITQACPKVSFEPIPIHYCAPAGFAILKCKDKGFSGKGTCKNVSTVQCTHGIRPVVSTQLLLNGSLAEKEVVIRSNNLTNNAETIIVQLNKTIQINCTRPNNNTRKGIHIGPGRAFYATGEIIGDIRQAHCNISGKDWNEALKWIAGKLKEKFNKTIVFRPPIRGGDPEIVMHTFNCGGEFFYCNTTKLFNSTHNGNDTHDTAINNTTITLPCKIKQIINMWQEVGKAMYAPPIRGNISCSSNITGLLLIRDGGNTSTNETFRPGGGNMKDNWRSELYKYKVVKIEPLGVAPTKAKRRVVQREKRAMGLGALFLGFLGAAGSTMGAASVTLTVQARQLLSGIVQQQNNLLRAIEAQQHMLQLTVWGIKQLQARVLAVERYLKDQQLLGIWGCSGKLICTTSVPWNTSWSNKSYHQIWENMTWMQWEKEIDNYTGIIYTLIEESQTQQEMNEKELLELDKWASLWNWFSITNWLWYIRIFIMIVGGLIGLRIVFAVLSIVKRVRQGYSPLSFQTLFPAQRGPDRPGGIEEEGGEQDRGRSIRLVDGFLALFWDDLRSLCLFSYHRLRDLLLIVAWIVELLGRRGWEILKYWWSLLQYWSQELKNSAISLLNTTAIIVGEGTDRVIETAQRVVRAFLHIPRRIRQGFERALQ
B2: HIV-1 Env, reservoir clone (protein)
chain: B1 chain with N811K
B3: HIV-1 Env, reservoir clone (protein)
chain: B1 chain with S769N
B4: HIV-1 Env, reservoir clone (protein)
chain: MRVKGIRRNYQHWWRGDIWRWGMMLLGMLMICSATGSLWVTVYYGVPVWKEATTTLFCASDAKAYDTEAHNVWATHACVPTDPNPQEVPLVNVTENFNMWKNNMVEQMHEDIISLWDQSLKPCVKLTPLCVTLHCTEIGTNATNNSSHNPTPTTNSSTSPTPMGEIKNCSFNVTTNRRDKVQKTYAFFYNMDIKQIAEEDNTSYILTSCNTSVITQACPKVSFEPIPIHYCAPAGFAILKCNDTNFNGTGPCKNVTTVQCTHGIKPVVSTQLLLNGSLARGEVMIRSENISNNAKIIIVQLKEPVEINCTRPNNNTRKSITIGPGRAFFGTDIIGDIRQAHCNISREKWNYTLYQISEKLRSHFVNKTIVFNQSSGGDPEIVMHSFNCGGEFFYCDTSKLFNSTWHTNSTANNTGDNSTITIPCRIKQIVNMWQEVGKAMYAPPIKGPIRCSSKITGVLLTRDGGTNNTNTTETFRPAGGDMRDNWRSELYKYKVVQIEPLGIAPTQAKRRVVQRDKRAVGIGALFLGFLGTAGSTMGAASITLTVQARNLLSGIVQQQNNLLRAIEAQQHLLQLTVWGIKQLQARVLAVESYLKDQQLLGIWGCSGKLICTTAVPWNNSWSNKSLDYIWNNMTWMEWEREIDNYTEYIYDLLEASQNQQEKNEQELLALDKWASLWSWFSITQWLWYIKLFLIIVGGLIGLRIVFAVFSIVNRVRQGYSPLSLQTLLPAQRGPDRPEGIEEEGGEQDRGRSIRLVDGFLALFWDDLRSLCLFSYHRLRDLLLIVTRIVELLGRRGWETLKYCWNLLQYWGQELKKSAVSLFNFSAIAVAEGTDRVIEVVQRIWRAIIHIPRRIRQGLEGALL
B5: HIV-1 Env, reservoir clone (protein)
chain: MKVRVMQRNWQHLGRWGLLFLGLLICCNATEQLWVTVYYGVPVWKEATTTLFCASDAKGYEKEAHNVWATHACVPTDPNPQEIPLVNVTENFNMWKNNMVEQMQTDIISLWDQSLKPCVKLTPLCVTLNCNNNIKWANGNNSTNPDMKNCSFNMTTEVRDKRLKVSALFYKIDLTPLNETSGEYRLINCNTSTIKQACPKVSWDPIPIHYCAPAGYAILKCRDKNFNGTGPCNNVSTVQCTHGIKPVVSTQLLLNGSLAEEDIVIRTQNISDNAKTIIVSLNESVTINCTRPGNNTRKSIHIGPGQVFYANNDIIGDIRKAFCTLNGTQWNKTLDRVKAKLRSLFNKTTIIFAQPSGGDLEVTMHSFNCRGEFFYCNTSGLFNNNTFNNTGGNENITLPCRIKQIINMWQGVGQAMYTAPIAGNITCVSNITGLLLIRDGGPDNDNETFRPGGGDMRDNWRSELYKYKVVEIEPLGIAPTRAKRQVVRRERRAVGIGAMFLGFLGAAGSTMGAASIALTVQARQLLSGIVQQQNNLLRAIEAQQHLLQLTVWGIKQLQARVLAVERYLKDQQLLGVWGCSGKLICTTSVPWNSSWSNKSQQEIWDNMTWMDWEREISNYSQTIYKLLEESQYQQDKNEQELLALDKWASLWNWFDISNWLWYIRIFIMIVGGLIGLRIVFAVLAIVNRVRKGYSPLSLQTLIPNSRGPDRPEGIEEGGGEQDRDRSVRLVNGFLALVWDDLRNLCLFSYRLLRDFILIAARTVDRGLRGGWKALKYLWNLTQYWSRELKDSAISLYNSIAIAVAEGTDRIIEALQIIVRGVLHIPRRIRQGLERALL
B6: HIV-1 Env, reservoir clone (protein)
chain: MKAKETRKNYQHLWRWGIMLLGMLMICSAASQLWVTVYYGVPVWKEATTTLFCASDAKAYDTEVHNVWATHACVPTDPNPQEVVLGNVTEDFNMWKNNMVEQMHEDIISLWDQSLKPCVKITPLCVTLNCTEYSNATSTTWGQMEKGEIKNCSFNVTTNIKNKMQKEYALFYKLDVVPIGDNSTNYRLIKCNTSAITQACPKVSFQPIPIHYCAPAGFAILKCNNKTFNGLGPCTNVSTVQCTHGIRPVVSTQLLLNGSLAEEEIVIRSENFSDNAKNIIVHLNASIEINCTRPNNNTRKSITIGPGRAFYATGDVIGDIRQAHCNISGEKWNEALKQIAIKLREQFGHNKTIVFNQSSGGDPEIVAHSVNCGGEFFYCNSTKLFNSTWTRNNTTESNETITLPCKIKQIINLWQEVGKAIYAPPISGPIRCSSNITGLLLTRDGGNTSETNKETFRPGGGDMRDNWRSELYKYKVVKIEPLGVAPTKAKRRVVQRERRAVGTFGALFLGFLGTAGSTMGAASITLTVQARQLLSGIVQQQNNLLKAIEAQQHLLQLTVWGIKQLQARVLAVERYLKDQQLLGLWGCSGKLICTTTVPWNASWSNKSLEQIWENMTWMQWEKEIDNYTGIIYSLISESQLQQEKNEKELLELDKWASLWTWFDITNWLWYIRIFIMIVGGLIGLRIVFAVLSIVNRVRKGYSPLSFQTRLPTPRGPDRPEGIEEEGGERGRDTSIRLVDGFLALIWDDLRNLCLFSYHHLRDLILIVVRTVELLGRRGWELLKYWWNLLKYWSQELKKSAVSLFNAAAIAVAEGTDRVIEVVQRAGRGILHVPRRIRQGLERALQ

Each binder was assayed against antibody 10-1074 (assay: neutralization IC50; higher = virus less sensitive to the antibody).
Description: (§1)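 Pseudovirus bearing the Env chain mixed with antibody, from 50 µg/ml in fivefold dilutions, on TZM-bl reporter cells, in duplicate.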
With B1 the “neutralization IC50” value was 0.097 mg/L.
B2 was tested, and the “neutralization IC50” value was 0.076 mg/L.
B3 was tested, and the “neutralization IC50” value was 0.119 mg/L.
In the case of B4, the “neutralization IC50” value is reported as 0.005 mg/L.
For B5, the “neutralization IC50” value was greater than 50 mg/L.
In the case of B6, the “neutralization IC50” value is reported as 0.001 mg/L.

The binders below were run against antibody 3BNC117 in the same assay as above.
Description: as §1
For B1, the “neutralization IC50” value was 0.053 mg/L.
In the case of B2, the “neutralization IC50” value is reported as 0.066 mg/L.
For B3, the “neutralization IC50” value was 0.079 mg/L.
With B4 the “neutralization IC50” value was 0.016 mg/L.
With B5 the “neutralization IC50” value was 0.08 mg/L.
With B6 the “neutralization IC50” value was 0.074 mg/L.

The binders below were run against antibody 10-1074 (assay: neutralization IC80; higher = virus less sensitive to the antibody).
Description: as §1
With B1 the “neutralization IC80” value was 0.372 mg/L.
For B2, the “neutralization IC80” value was 0.306 mg/L.
With B3 the “neutralization IC80” value was 0.419 mg/L.
With B4 the “neutralization IC80” value was 0.016 mg/L.
In the case of B5, the “neutralization IC80” value is reported as greater than 50 mg/L.
In the case of B6, the “neutralization IC80” value is reported as 0.006 mg/L.

The binders below were run against antibody 3BNC117 in the same assay as above.
Description: as §1
For B1, the “neutralization IC80” value was 0.209 mg/L.
With B2 the “neutralization IC80” value was 0.246 mg/L.
With B3 the “neutralization IC80” value was 0.306 mg/L.
In the case of B4, the “neutralization IC80” value is reported as 0.07 mg/L.
B5 was tested, and the “neutralization IC80” value was 0.585 mg/L.
In the case of B6, the “neutralization IC80” value is reported as 0.483 mg/L.
